# Results of single-concentration screens

Measurements from “University of Dundee, Small-Polar-MMV Screening Library” (2021), ChEMBL document CHEMBL3988442.

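Whole-cell growth test on Mycobacterium tuberculosis, read after 3 days in glucose-containing 7H9 medium; the read-out is not stated. Concentration: 500 µM. The record gives no direction; compounds that gave an IC50 in retests scored well above the rest, so higher reads as more growth inhibition. Of about 18,000 compounds tested this way, about 1,400 (7.9%) reached 50% or more in at least one test.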

Results are given as percent effect. How 0% and 100% were set is not recorded. Most values in the screen are low, and negative values occur. Many other results are left out here, so strong results are more common than in the screen.

compound	effect
CC(C)OCc1nnc(C(C)N)s1 (stereo unspecified)	6.634
CC1(C#N)CCN(CCn2cc(Cl)cn2)CC1	13.89
CC(C(=O)NC1CC1)N1CCNCC1 (stereo unspecified)	-5.397
CN(C(=O)c1cnccn1)C1(C#N)CCC1	9.783
CCOCCN1CCN(C2(C(N)=O)CCCCC2)CC1	11.83
Cc1cc(C(=O)N2CCC(C(N)=O)C2)cc(Cl)c1Br (stereo unspecified)	68.84
O=C(NCC(O)c1ccc(Cl)cc1)Nc1ccccn1 (stereo unspecified)	75.71
CCn1nccc1[C@@H]1OCCC[C@H]1CN	8.444
Cc1cc(NC(=O)NC(C)Cn2ccnc2)no1 (stereo unspecified)	-3.693
COCc1nn(CC(O)c2cccc(F)c2)c(=O)o1 (stereo unspecified)	9.227
CNC(=O)c1ccc(NC(=O)N(C)CCOC)cc1	2.874
Cc1cc(S(=O)(=O)NC2CCS(=O)(=O)C2)c(C)s1 (stereo unspecified)	54.29
O=S(=O)(CC1CCCCC1)N[C@H]1CCCNC1	20.29
CCc1ccc(CN2C[C@@H]3CCC[C@H](C2)C(=O)N3)nc1	3.999
CN(CCOc1ccccc1)C(=O)c1cnn(C)c1N	29.39
Cc1cc(C(=O)NCCC(=O)N2CCCC2)c(C)o1	3.281
NC1CCN(C(=O)c2cnccn2)CC1	0.2208
CN(C)C(=O)CN1CCOC(CCc2ccccc2)C1 (stereo unspecified)	50.94
Cc1ccc2cccc(OCC(C)CS(C)(=O)=O)c2n1 (stereo unspecified)	-2.807
CC1CCCN(C(=O)CSCC(N)=O)CC1 (stereo unspecified)	38.55
NC1CCN(S(=O)(=O)c2ccccc2)CC1	-9.81
CC(NC(=O)c1ccc(Cl)s1)c1ncon1 (stereo unspecified)	4.264
CN1CCN(C(=O)C2CC2)c2ccccc2C1	4.853
CC(NC(=O)CSc1nc(=O)[nH]n1C)c1cccs1 (stereo unspecified)	85.31
NS(=O)(=O)C1CCN(C(=O)NCc2ccccc2)CC1	11.26
CO[C@H]1CNCC1NC(=O)Cc1cccc(Cl)c1 (stereo partly specified)	22.46
COC(=O)c1sc(N2CCCCC2)nc1N	-11.25
NC(=O)C1(NC(=O)Cc2ccc3ccccc3c2)CC1	-7.843
c1ccc(CN2CCCCC2CN2CCOCC2)nc1 (stereo unspecified)	0.5323
CN(C)S(=O)(=O)c1cccc(Cn2cccn2)c1	31.41
CN(CC(N)=O)CC(=O)NCc1cc(Br)cs1	33.72
COC[C@@H]1CCCN1C(=O)Nc1cnns1	0.9428
c1cncc(CCNCc2cccc3c2OCCO3)c1	24.02
CC(C)(N)c1nc(C2CC2)cc(=O)[nH]1	-3.474
O=C(CNc1ccccc1F)NC1CC1	5.147
COc1ccccc1C(C)NC(=O)Cn1cc(C)cn1 (stereo unspecified)	51.09
CC(C)COc1ccccc1NC(C)C(=O)NC(N)=O (stereo unspecified)	5.812
CNCc1ccc(C(=O)NC)o1	5.346
CC(c1ccccn1)N1CCCSCC1 (stereo unspecified)	9.788
COc1ccnc(NC(=O)NCc2cccs2)c1	67.39
O=C(CCc1ccccc1)NCC1(O)CCOC1 (stereo unspecified)	-7.221
O=C(c1c[nH]c2ccccc12)N1CCCNCC1	8.71
CCCn1ccc(NC(=O)c2cccc(C#N)c2)n1	56.78
COc1ccc(C)cc1NC(=O)Cn1ccnc1	38.48
CN(Cc1ccco1)c1ncnc2c1cnn2CCO	37.25
CC(=O)N1CCc2cc(NC(=O)c3ccsc3)ccc21	4.584
Cc1nc(C)c(CC(=O)NCC2CNCCO2)s1 (stereo unspecified)	-3.318
CC(C)CC(O)C(=O)N1CCN(c2cccnc2)CC1 (stereo unspecified)	52.96
Cn1nnnc1NCc1cccc(Cl)c1Cl	58.45
Cc1cc(C)n(C(C)C(=O)NCCS(=O)(=O)N(C)C)n1 (stereo unspecified)	16.43
CN(CCS(=O)(=O)c1ccc(Cl)cc1)CC(=O)N(C)C	99.17
Cc1nc(CCN)cc(NC2CCC2)n1	68.28
NCC(=O)N1CCN(Cc2ccccc2)CC1	8.09
CC1Cc2ccccc2N(C(=O)c2csnn2)C1 (stereo unspecified)	56.2
CC[C@@H]1C[C@H]1NC(=O)N1CCC(CS(N)(=O)=O)CC1	13.22
CC(N)c1nncn1C(C)C (stereo unspecified)	11.28
N#Cc1ccsc1C(=O)N1CCN(CCO)CC1	-4.463
CN(C)CCNC(=O)c1ccc(Br)o1	-7.302
CSC(C)CNC(=O)[C@@H]1CCCN1 (stereo partly specified)	-0.4947
CCc1ccc(CCNC(=O)CC2CNCCO2)cc1 (stereo unspecified)	37.06
CC1CCCCN1S(=O)(=O)NCc1ccccn1 (stereo unspecified)	10
O=C(C1CCCO1)N1CCN(c2cncc(Cl)n2)CC1 (stereo unspecified)	34.97
COc1ccc(CN2CCCNCC2)cc1	63.18
CCCN(CCO)Cc1nnc(CC)o1	-1.398
COCCC(=O)Nc1ccc(OCC(F)(F)F)nc1	39.96
NC(CO)c1cccc2ccccc12 (stereo unspecified)	17.39
C[C@@H](C(=O)NCc1cccc(Cl)c1)n1cnnn1	18.61
CN(Cc1ccc(N)nc1)c1ncc(Cl)cn1	73.38
NS(=O)(=O)c1ccc(CNC(=O)NCC(F)(F)F)cc1	8.321
CC(C)(C#N)C(=O)Nc1ncccc1Cl	1.995
CC(N)c1ccc(N2CCCCC2=O)cc1 (stereo unspecified)	-13.13
CC(C)N1CCC(NC(=O)C2=NN(C)C(=O)CC2)CC1	-7.543
O=C(CN1CCCC(O)C1)NCCCc1ccccn1 (stereo unspecified)	6.492
CCCNC(=O)c1csc(NC(C)=O)n1	10.43
CN(Cc1nc(C2CCOC2)no1)C1CCNCC1 (stereo unspecified)	8.795
CCOc1cccc(Cn2cnc(CC)cc2=O)n1	75.83
CN(C1(C#N)CCC1)S(=O)(=O)c1ccccc1	59.79
Cn1nc(C(N)=O)c2ccccc21	8.42
Cn1ccnc1CN1CCN(Cc2ccccn2)CC1	20.47
CC(O)CN1CCN(C)CC1 (stereo unspecified)	1.698
Cc1cc2nc(CN)[nH]c2cc1C	61.26
N#Cc1ccc(N2CCN(c3ncccn3)CC2)nc1	-7.1
CN1CCN(c2cnn(CCC(N)=O)c(=O)c2)CC1	3.103
CCC(CC)C(CN)N1CCCC1 (stereo unspecified)	49.44
CC(C)c1noc(OCCNS(C)(=O)=O)n1	-17.84

For reference, 7 entries once more:

| compound | effect |
|---|---|
| `CN1CCN(c2cnn(CCC(N)=O)c(=O)c2)CC1` | 3.103 |
| `CC(N)c1nncn1C(C)C` (stereo unspecified) | 11.28 |
| `CCn1nccc1[C@@H]1OCCC[C@H]1CN` | 8.444 |
| `CN(Cc1nc(C2CCOC2)no1)C1CCNCC1` (stereo unspecified) | 8.795 |
| `CN(Cc1ccco1)c1ncnc2c1cnn2CCO` | 37.25 |
| `CC1Cc2ccccc2N(C(=O)c2csnn2)C1` (stereo unspecified) | 56.2 |
| `CSC(C)CNC(=O)[C@@H]1CCCN1` (stereo partly specified) | -0.4947 |